The subject of this assay is HIV-1. As to conditions: tested at 25 μM.

Take `O=C(C=C(O)c1nnn[nH]1)c1c[nH]c2ccc(Cl)cc12`: the “antiviral activity in single cycle assay” value was “did not display any antiviral activity”.

Values taken from US20060063938A1, “Compounds to treat hiv infection and aids” (priority 2001, published 2006).
